Molecular target: Bcl‐2‐ΔTM (UniProt P10415)
Test: Isothermal titration calorimetry (ITC)
Conditions: 25°C, 3 trials
Procedure: All ITC experiments were performed in triplicate using a MicroCal 200 ITC instrument (Malvern Panalytical) at 25°C. To initiate ITC experiments, the sample cell was filled with 250 μL of binding buffer supplemented with 20 μM Bcl‐2‐ΔTM. Acetylated peptides were then diluted to a final concentration of 200 μM in binding buffer and injected into the sample cell at 2 μL volumes using a 6 s injection time and a 150 s delay between each injection. Data analysis was performed using MicroCal Origin software v7.0. Non‐linear curves were fit using Equation (3) adapted from the instrument manual: (3) ΔQ=nMtΔHVo/21+Xt/nMt+1/nKaMt−1+Xt/nMt+1/nKaMt^2−4Xt/nMt where, ΔQ is the heat content released or absorbed by each injection. ΔH is the enthalpy change of ligand binding and M t is bulk concentration of Bcl‐2‐ΔTM. V o is the cell volume of Bcl‐2‐ΔTM and K a is the affinity constant. X t is bulk concentration of peptide and n is the number of sites occupied by the peptide. Dissociation constants (K d) for all peptides were calculated by taking the reciprocal of the K a .
ΔG values were calculated from the Gibbs free energy Equation (4) using Origin‐fitted values of ΔH and program‐calculated values of ΔS. (4) ΔG=ΔΗ−ΤΔS

Sequences of proteins named here, by UniProt entry; tags and fusion partners are left off.
UniProt P10415, whole entry, stated change not applied: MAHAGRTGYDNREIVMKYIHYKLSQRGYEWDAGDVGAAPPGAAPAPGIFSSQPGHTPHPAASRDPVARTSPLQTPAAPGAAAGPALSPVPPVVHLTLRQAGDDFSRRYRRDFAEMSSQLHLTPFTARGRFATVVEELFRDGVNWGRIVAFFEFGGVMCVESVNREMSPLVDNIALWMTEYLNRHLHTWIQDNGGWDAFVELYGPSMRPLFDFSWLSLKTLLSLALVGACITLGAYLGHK

For `CC[C@H](NC(=O)[C@H](CO)NC(=O)CNC(C)=O)C(=O)N[C@@H](CCCCN)C(=O)N[C@@H](CCCCN)C(=O)N[C@@H](CC(C)C)C(=O)N[C@@H](CO)C(=O)N[C@@H](CC)C(=O)N[C@@H](CC)C(=O)N[C@@H](CC(C)C)C(=O)N[C@@H](CCCCN)C(=O)N[C@H]1CSSC[C@@H](C(=O)N[C@H](C(=O)N[C@@H](CCCCN)C(=O)N[C@@H](Cc2c[nH]cn2)C(N)=O)C(C)C)NC(=O)[C@H](CCC(=O)O)NC(=O)[C@H](CC)NC(=O)[C@H](CCCCN)NC(=O)[C@H](CC(=O)O)NC(=O)CNC(=O)[C@H]([C@@H](C)CC)NC(=O)[C@H](CC)NC(=O)[C@H](CCCCN)NC(=O)CNC(=O)[C@H](CC(C)C)NC(=O)[C@H](CC(C)C)NC(=O)CNC(=O)[C@H](CC(=O)O)NC(=O)CNC(=O)[C@H]([C@@H](C)CC)NC1=O` [^AcScTx‐Bax^ΔΔ,12–28], which “n (number of sites)” value (20 μM Bcl‐2‐ΔTM in cell, 200 μM peptide injected, binding buffer pH 8.0, ± SD) is on record?
The value was 1.20 ± 0.02.

What about the ΔG (binding buffer pH 8.0, calculated as ΔH − TΔS, ± SD) of the same compound?
Its ΔG is -8.38 ± 0.33 kcal/mol.

And the TΔS (binding buffer pH 8.0, ± SD)?
Its TΔS is 2.81 ± 0.11 kcal/mol.

And the ΔH (binding buffer pH 8.0, ± SD)?
Its ΔH is -5.57 ± 0.45 kcal/mol.
